Earlier results in article PMC4335872, “Pharmacokinetic-Pharmacodynamic Analysis of Spiroindolone Analogs and KAE609 in a Murine Malaria Model” (Antimicrobial Agents and Chemotherapy, 2015).

Design: method as in PMID 24089407
Details: cited from earlier work

Compound: C[C@H]1[C@H](OC(=O)CCC(=O)O)O[C@@H]2O[C@@]3(C)CC[C@H]4[C@H](C)CC[C@@H]1[C@@]24OO3 [artesunate]
- PK-PD relationship (type of killing): concentration-dependent killing
